In ChEMBL document CHEMBL5244272 (Eur J Med Chem, 2021) one finds IC50 data, which are given here for 1 compound.

This assay relates to Plasmodium falciparum. Description: Antimalarial activity against Plasmodium falciparum 3D7. The format is functional, organism-based.

By IC50 is commonly meant the point on the concentration scale where inhibition reaches its midpoint. High values mean weaker potency, low ones greater potency.

≈ marks a conversion by molar mass, not a printed value.

The compound `CC1OOC(C)(C)OO1` displayed an IC50 of 1.95 µg/mL (≈ 14.6 µM).
